The results in this text go back to ChEMBL document CHEMBL1240457, “Synthesis and biological evaluation of cyclic nitrogen mustards based on carnitine framework” (2010).

The subject of one experiment is NCI-H460. The experiment in a line: Cytotoxicity against human H460 cells after 24 hrs by MTT assay. On the technique in general: Tetrazolium dyes change colour on reduction, which living cells bring about.
In another experiment the test system is A-375. Put plainly: Cytotoxicity against human A375 cells after 24 hrs by MTT assay.

In turn, `CCCCCCCCCCCCCCCC(=O)O[C@@H]1[C@@H](C(=O)O)CCC[C@H]1N(CCCl)CCCl` returned a CC50 in the experiment on NCI-H460 of 215 µM.

With `CCCCCCCC(=O)O[C@H]1[C@@H](C(=O)O)CCC[C@@H]1N(CCCl)CCCl`, it took 322 µM to reach half-maximal cytotoxicity in the experiment with A-375 (CC50).

As a reminder, the CC50 is the concentration that lowers cell viability or growth by half. A higher CC50 goes with lower toxicity to the cells.
